Reference: patent publication US9974771B2 (priority 2016, dated 2018)

Assays:
PrP^Sc in ScN2a cells = experiment: Long-term (20 days) treatment and drug withdrawal, PrP^Sc immunoblot, ScN2a cells; conditions: 20 days (five passages), then 20 days without drug, FIG. 6A
[1] = tested on: PrP^Sc in ScMEF cells (prion strain Me7); experiment: Long-term (20 days) treatment and drug withdrawal, PrP^Sc immunoblot, ScMEF cells; conditions: 20 days (five passages), then 20 days without drug, FIG. 6C

SMILES | PrP^Sc signal during long-term treatment and after withdrawal (PrP^Sc in ScN2a cells; AR-12 3 μM) | PrP^Sc signal during long-term treatment and after withdrawal ([1]; AR-12 3 μM) | PrP^Sc signal during long-term treatment and after withdrawal (PrP^Sc in ScN2a cells; AR-14 2 μM) | PrP^Sc signal during long-term treatment and after withdrawal ([1]; AR-14 2 μM)
NCC(=O)Nc1ccc(-n2nc(C(F)(F)F)cc2-c2ccc3c(ccc4ccccc43)c2)cc1 [AR-12, 2-amino-N-(4-(5-(phenanthren-2-yl)-3-(trifluoromethyl)-1H-pyrazol-1-yl)phenyl)acetamide] | completely disappeared during drug treatment and did not reappear after drug withdrawal | completely disappeared during drug treatment and did not reappear after drug withdrawal | – | –
NCCCC[C@H](N)C(=O)Nc1ccc(-n2nc(C(F)(F)F)cc2-c2ccc3c(ccc4ccccc43)c2)cc1 [AR-14] | – | – | completely disappeared during drug treatment and did not reappear after drug withdrawal | completely disappeared during drug treatment and did not reappear after drug withdrawal
